PubChem BioAssay AID504761 | Drosophila RNAi Screening Center, 2011

- Aim: 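Genome-wide fly cell screen for genes dengue virus requires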 (primary screen)
- Cell system: D.Mel-2 cells from Drosophila
- Reagents: long dsRNA against Drosophila genes
- Conditions: infection with dengue virus type 2; dose and infection time not stated
- Measured: 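Cells stained for dengue envelope protein and imaged; percent of infected cells per well on duplicate plates, ranked by infection, with stained nuclei counted for cell number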
- Reading the numbers: infection score: higher = more virus-infected cells; cell count: higher = more cells in the well
- Hit rule: 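Low infection ranks in the two replicates (chance level up to 0.065) followed by a retest with a 1.5-fold or larger significant decrease, p below 0.05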
- Calls: active = confirmed: knock-down lowers infection; inactive = not picked or not confirmed
The screen tested about 22,000 reagents; below is a random part of those with a known target gene and a result. In the full data, 116 (0.52%) were called active. 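Calls depend on retest data that are not deposited; infection was ranked per plate without normalising between plates; the unit of the infection score is not given.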 The raw values are shown without normalisation. Reagents against one gene are numbered here. A plus sign joins genes that one reagent is predicted to hit. The record does not give: the amount of reagent, the time to read-out.

target,reagent,"infection score, replicate 1","infection score, replicate 2","cell count, replicate 1","cell count, replicate 2",activity call
CG5608,1,16.9,16.1,7020,6476,inactive
Pa1,1,1.87,3.82,6756,7009,inactive
Pa1,2,21,,4925,223,inactive
sds22,1,12.3,,1588,445,inactive
Syx4,1,,5.38,433,1486,inactive
Syx4,2,0.18,2.83,6661,6334,active
Mnt,1,3.47,12.5,6449,6348,inactive
Mnt,2,2.01,6.25,6557,6332,inactive
Theg,1,1.23,2.05,6687,6232,inactive
unc,1,6.34,1.07,6153,5968,inactive
unc,2,11.9,16.1,6755,5871,inactive
CheB38b,1,1.23,0.85,5931,6444,inactive
CG9471,1,1.23,12.7,6445,6241,inactive
CG9471,2,8.98,8.51,5693,5841,inactive
fl(2)d,1,4.62,15,6231,4849,inactive
Thor,1,2.57,1.52,6622,6433,inactive
Mlp60A,1,6.68,9.92,5553,3711,inactive
Mlp60A,2,3.53,3.79,6705,6512,inactive
Mlp60A,3,0.7,13.8,5735,5576,inactive
CG3330,1,4.33,8.31,6577,6537,inactive
TTLL6B,1,7.14,4.06,5564,6347,inactive
TTLL6B,2,15.1,8.99,4355,5086,inactive
CG8861,1,1.18,0.76,5763,5949,inactive
CG8861,2,6.25,7.89,7037,6993,inactive
Acsx4,1,30.3,8.86,5240,3114,inactive
Acsx4,2,5.55,5.65,6288,6281,inactive
hebe,1,0.84,2.11,6437,5174,inactive
hebe,2,11.7,28.7,5854,5813,inactive
hebe,3,4.58,16.6,5174,4190,inactive
hebe,4,2.72,11.5,6805,6645,inactive
na,1,15.3,17.7,4976,5905,inactive
na,2,10.5,16.5,6314,6000,inactive
UGP + PGRP-LF,1,1.03,1.79,5914,6213,inactive
Vha16-1,1,8.72,7.33,5954,6790,inactive
Orco,1,10.9,5.11,6425,6804,inactive
Orco,2,8.46,13.5,6492,6403,inactive
CG30384,1,4.39,4.42,6099,6747,inactive
CG32533,1,3.5,3.56,6477,6918,inactive
CG32533,2,6.45,7.31,5956,5761,inactive
CG32533,3,26.6,31.8,5196,6329,inactive
CG1983,1,21.5,,5411,267,inactive
mtrm,1,1.91,15.8,5662,5505,inactive
TwdlY,1,5.8,5.73,5881,6210,inactive
MFS10,1,6.76,1.59,6107,6665,inactive
MFS10,2,12.6,11.1,6115,6492,inactive

Records above whose gene name begins with U or u (3):
target,reagent,"infection score, replicate 1","infection score, replicate 2","cell count, replicate 1","cell count, replicate 2",activity call
unc,1,6.34,1.07,6153,5968,inactive
unc,2,11.9,16.1,6755,5871,inactive
UGP + PGRP-LF,1,1.03,1.79,5914,6213,inactive

Next results follow:
target,reagent,"infection score, replicate 1","infection score, replicate 2","cell count, replicate 1","cell count, replicate 2",activity call
CG3546,1,3.1,,1257,284,inactive
CG3546,2,5.75,6.91,6499,6589,inactive
laza,1,5.95,4.09,6422,6872,inactive
laza,2,1.65,3.51,6672,6516,inactive
laza,3,1.38,,506,244,inactive
CG13250,1,9.78,7.88,5795,5290,inactive
CG13250,2,14.2,21.3,2402,4402,inactive
GstE3,1,12.2,13.9,3861,5513,inactive
Snrk,1,30.4,31.7,5765,5738,inactive
Snrk,2,0.6,3.71,6643,6520,inactive
CG13474,1,1.55,2.68,5732,6147,inactive
betaTub56D,1,6.37,3.93,1130,788,inactive
betaTub56D,2,18.7,16.6,710,984,inactive
GCC88,1,10.9,32.9,6450,5481,inactive
GCC88,2,,4.62,366,736,inactive
CG8046,1,6.58,7.42,6672,6320,inactive
CG3008,1,12.2,4.74,7003,7201,inactive
Tbcd,1,7.71,10.6,6189,5642,inactive
CG31698,1,2.16,0.77,6845,7013,inactive
CG31698,2,5.32,2.22,1655,765,inactive
brv2,1,6.36,21.3,6663,5732,inactive
brv2,2,17.7,8.27,6252,6239,inactive
RpL23,1,19.6,20.3,4805,5082,inactive
daed,1,7.59,7.28,5833,5635,inactive
insc,1,2.19,5.49,6850,6760,inactive
jumu,1,17.9,21.4,4459,4638,inactive
CG30178,1,6.87,2.68,6316,5710,inactive
CG32453,1,2.89,5.15,6708,6966,inactive
Prosbeta3,1,0.48,0.62,419,487,inactive
